PubChem BioAssay AID624099, ICCB-Longwood – 2012

Screen: 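Host factors E2 relies on to silence an HPV18 LCR reporter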 (primary screen)
System: human C33A cervical carcinoma cells (HPV-negative) stably expressing BPV1 E2 and an HPV18 LCR luciferase reporter
Reagents: siRNA pool against human genes, 40 nM
Time to read-out: 72 h
Measurement: 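HPV18 LCR reporter light per well, converted to plate-wise z-scores that exclude control wells, and averaged over triplicate plates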
Scale: mean z-score and z-score: higher = stronger reporter signal, weaker E2 silencing
Call rule: 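Mean z ≥ 2 together with z ≥ 2 in two or more of the three replicates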
In all, the deposit lists about 21,000 reagents; shown is an unselected part. 497 of all reagents (2.4%) count as active. 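Higher z means weaker E2 silencing; only reporter increases were scored, and knock-downs that hurt cell survival may mask genuine repressor factors.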 A number with no mark means an inactive call. Reagent sequences are not shown.

FAM120A → mean z-score = -0.22; z-score, replicate A = -0.2; z-score, replicate B = -0.27; z-score, replicate C = -0.21
MCU → mean z-score = -0.37; z-score, replicate A = -0.55; z-score, replicate B = -0.26; z-score, replicate C = -0.31
GAB1 → mean z-score = -0.13; z-score, replicate A = 0.05; z-score, replicate B = -0.18; z-score, replicate C = -0.25
CHCT1 → mean z-score = -0.96; z-score, replicate A = -0.85; z-score, replicate B = -1.28; z-score, replicate C = -0.76
NPEPL1 → mean z-score = 0.29; z-score, replicate A = 0.5; z-score, replicate B = 0.25; z-score, replicate C = 0.13
PPIAP26 → mean z-score = 0.58; z-score, replicate A = 0.11; z-score, replicate B = 0.63; z-score, replicate C = 0.99
ATPAF2 → mean z-score = 0.04; z-score, replicate A = -0.03; z-score, replicate B = -0.03; z-score, replicate C = 0.18
MECP2 → mean z-score = 1.14; z-score, replicate A = 0.94; z-score, replicate B = 1.47; z-score, replicate C = 1.01

Targets listed so far whose gene name starts with M or m:
MCU → mean z-score = -0.37; z-score, replicate A = -0.55; z-score, replicate B = -0.26; z-score, replicate C = -0.31
MECP2 → mean z-score = 1.14; z-score, replicate A = 0.94; z-score, replicate B = 1.47; z-score, replicate C = 1.01

The list goes on:
DSEL → mean z-score = -0.13; z-score, replicate A = -0.2; z-score, replicate B = -0.17; z-score, replicate C = -0.02
R3HDM4 → mean z-score = 0.8; z-score, replicate A = 0.47; z-score, replicate B = 0.94; z-score, replicate C = 0.98
FBXW5 → mean z-score = -0.35; z-score, replicate A = -0.33; z-score, replicate B = -0.18; z-score, replicate C = -0.53
LOC400943 (retired record) → mean z-score = 0.11; z-score, replicate A = 0.15; z-score, replicate B = -0.11; z-score, replicate C = 0.29
